According to article PMC11084498:

How the values were obtained:
OsCAMTA3CG-1-GST [1] = test: competition EMSA; settings: unlabeled competitor at 1-, 10- or 100-fold reduced binding of Cy5 probe, EMSA: 100 mM Tris-HCl pH 7.5, 100 mM KCl, 50 mM MgCl2, 1 mM DTT, 0.05 mg/mL poly(dI-dC), 20 uL, 4 C, 30 min, 3.5% polyacrylamide, 0.5x TBE, recombinant protein, protein details: GST (pGEX4T-1)
OsCAMTA3CG-1-GST [2] = test: EMSA; settings: 50 mM MgCl2, poly(dI-dC), EMSA: 100 mM Tris-HCl pH 7.5, 100 mM KCl, 50 mM MgCl2, 1 mM DTT, 0.05 mg/mL poly(dI-dC), 20 uL, 4 C, 30 min, 3.5% polyacrylamide, 0.5x TBE, recombinant protein, protein details: GST (pGEX4T-1), label: Cy5 end label (on F strand)

Q: Does “TCCACTGGGGACGTACGAGCTCCGCGCATCCCTTCCATTCCATTACTGAC (double strand) [OsALDH2B1 unlabeled competitor]” bind (OsCAMTA3CG-1-GST [1])?
A: Result: binds

Q: Does “TCCACTGGGGACGTACGAGCTCCGCGCATCCCTTCCATTCCATTACTGAC (double strand) [Cy5-OsALDH2B1 probe]” bind (OsCAMTA3CG-1-GST [2])?
A: Result: binds

For at least one entry, the source does not settle the construct or the ends of the probe.
